# HIV-1 NL4-3 point mutations in RT: replication capacity

From the data files of Al-Mawsawi et al. 2014, doi:10.1186/s12977-014-0124-6.

Protein: RT of HIV-1 NL4-3, numbered from its first residue.
Effects on overlapping genes or RNA elements are not listed.

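Random point mutant libraries of HIV-1 NL4-3, one for each of seven fragments, were passaged in CEM T lymphocytes. Sequencing gave the RC index: frequency after two rounds over frequency in the input plasmid.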

A higher RC index is a better tolerated change; approximate classes are lethal up to 0.1, attenuated to 0.2, tolerated above. A change reads original residue, position, new residue. Input reads are the counts in the plasmid library. The authors read an index above 1 as above wild type (1.9% of all changes in the genome). Clones carried about five changes per kilobase, which can drag down the index of neutral changes. Nucleotide positions follow pNL4-3.

substitution,base,input reads,RC
G152E,G3004A,109,0.902
P55A,C2712G,181,0.0426
K358M,A3622T,320,0.0969
G112S,G2883A,238,0.0700
V417D,T3799A,248,0.0368
K331N,G3542T,174,0.0557
I341V,A3570G,126,0.0461
I178L,A3081T,412,0.0502
Y501C,A4051G,190,0.0400
A445S,G3882T,80,0.0456
D86N,G2805A,154,0.664
A129T,G2934A,494,0.114
F124L,T2919C,242,0.0344
K82N,G2795T,206,0.0496
K103E,A2856G,382,0.0436
I380K,T3688A,278,0.0382
K275I,A3373T,456,0.0132
G543R,G4176A,217,0.347
L484Q,T4000A,382,0.0398
P170L,C3058T,115,0.390
E413V,A3787T,504,0.0527
W406C,G3767T,144,0.111
P4T,C2559A,171,0.315
I202L,A3153T,191,0.187
V276L,G3375T,188,0.0319
P247L,C3289T,36,0.197
I132M,A2945G,121,0.0258
Y342F,A3574T,160,0.0848
K512T,A4084C,159,0.0722
F77L,T2778C,258,0.0396
M16V,A2595G,187,0.0684
T216K,C3196A,82,0.160
T128I,C2932T,370,0.0366
K287Q,A3408C,175,0.0816
A129E,C2935A,142,0.0440
L92S,T2824C,189,0.0991
I5T,T2563C,426,0.0690
A376P,G3675C,35,0.303
K347I,A3589T,252,0.0538
L149H,T2995A,270,0.0128
Q197L,A3139T,308,0.0305
Q207L,A3169T,210,0.0179
K32I,A2644T,338,0.0315
V179I,G3084A,311,0.205
S48P,T2691C,997,0.0464
L228I,C3231A,424,0.0620
Q174H,A3071T,424,0.0203
G285V,G3403T,143,0.0666
V8L,G2571C,160,0.107
L325S,T3523C,149,0.117
D320V,A3508T,195,0.0497
I94T,T2830C,199,0.0261
L193I,T3126A,446,0.0548
A502E,C4054A,82,0.0463
K395M,A3733T,305,0.0348
E297K,G3438A,85,0.504
W383C,G3698T,200,0.173
V559L,G4224C,182,0.0743
A446S,G3885T,83,0.0660
F61S,T2731C,150,0.0795
T473I,C3967T,269,0.106
E40D,A2669C,71,0.0901
E514G,A4090G,370,0.0266
K154N,A3011T,448,0.0577
R307K,G3469A,88,0.216
E203D,G3158T,323,0.0756
E40D,A2669T,453,0.0282
L484P,T4000C,328,0.0637
A360D,C3628A,136,0.114
D218V,A3202T,340,0.0332
Q174H,A3071C,127,0.0543
K70I,A2758T,246,0.0415
T216I,C3196T,562,0.0635
D488E,T4013A,191,0.0298
W212S,G3184C,88,0.0641
V467I,G3948A,167,0.364
I393T,T3727C,193,0.234
G541E,G4171A,219,0.883
I63T,T2737C,150,0.0341
K201I,A3151T,407,0.0323
K73R,A2767G,92,0.0555
K527E,A4128G,352,0.0698
L560I,C4227A,155,0.0873
K103R,A2857G,155,0.0537
K249Q,A3294C,73,0.0194
R172G,A3063G,324,0.0373
L205M,C3162A,75,0.0501
D17Y,G2598T,217,0.0786
W535R,T4152C,262,0.0438
E6D,G2567T,299,0.205
S513G,A4086G,259,0.0570
L120S,T2908C,203,0.0564
P9A,C2574G,165,0.0891
P55S,C2712T,261,0.325
K49I,A2695T,524,0.0221
V118I,G2901A,291,0.0608
K22E,A2613G,324,0.0592
A481T,G3990A,223,0.0767
N494S,A4030G,230,0.0496
S513R,T4088G,74,0.0886
L282F,C3393T,182,0.0610
A158V,C3022T,341,0.177
I380L,A3687T,340,0.0468
I435L,A3852T,239,0.0382

The last 5 entries again:

S513R (base T4088G, input reads 74): 0.0886.
L282F (base C3393T, input reads 182): 0.0610.
A158V (base C3022T, input reads 341): 0.177.
I380L (base A3687T, input reads 340): 0.0468.
I435L (base A3852T, input reads 239): 0.0382.